Anti-infective test results gathered from many reports (values: NIAID ChemDB through PubChem).

Common to all: toxicity to cultured cells; endpoint: CC50

Rows are shuffled and stem from different studies. Blank or dashed fields: not listed here. CCn: concentration that lowers growth or viability of the cells by n%.

smiles	setting	read by	cells	value
NC(=O)c1ncn([C@@H]2O[C@H](CO)[C@@H](O)[C@H]2O)n1		neutral red	APC103	78 µM
O=c1[nH]c(=O)n([C@H]2C[C@H](O)[C@@H](COP3(=O)OCc4cc5ccccc5cc4O3)O2)cc1/C=C/Br			HELF	85 µg/mL
O=c1c2cccn2ccn1CCNC(=S)Nc1ccc(Br)cn1			NSO	420 µM
Nc1nc(N)c2ncn(CCOCP(=O)(O)O)c2n1			C3	>200 µM
OC[C@H]1O[C@@H](n2cnc3c(NC4CC4)ncnc32)C[C@@H]1O			Sheep chondrocytes G81092	312 µM
CCc1nc2ccccn2c1C(=O)c1ccco1			U1	>100 µM
CC(/C=C/C=C(\C)CC(=O)O)=C\C=C\C=C(C)\C=C\C(C)=C(/C)C(=O)O		ATP	RAJI	>26 µM
Nc1nc(NC2CC2)c2ncn(C=C3CC3CO)c2n1		neutral red	MEF	220 µM
CC(C)OC(=O)C(N)CCSC[C@H]1O[C@@H](n2ccc3c(N)ncnc32)[C@H](O)[C@@H]1O			PRK/E6SM	40 µg/mL
OC[C@@H]1CC[C@H](n2cnc3c(NC4CCCCCC4)ncnc32)O1			MDBK	244 µM
CCCOC(=O)C(CCSC[C@H]1O[C@@H](n2ccc3c(N)ncnc32)[C@H](O)[C@@H]1O)NC(=O)COC			PRK/E6SM	200 µg/mL
CC(=O)O[C@H]1C[C@H](n2cc(/C=C/Br)c(=O)[nH]c2=O)O[C@@H]1COP1(=O)OCc2cccc(C)c2O1			HELF	>128 µg/mL
Nc1ncnc2c1ncn2[C@H]1C[C@H](O)[C@@H](CO)O1		MTT	Sheep chondrocytes G81092	>400 µM
Nc1nc(=O)n([C@@H]2O[C@H](CO)[C@@H](O)[C@@H]2F)cc1I			HSB-2	2.4 µM
OC[C@H]1O[C@@H](n2cnc3c(NC4CCCCCC4)ncnc32)C[C@@H]1O		MTT	Sheep chondrocytes G81092	108 µM
Nc1nc2c(ncn2C[C@@H](CO)OCP(=O)(O)O)c(=O)[nH]1			HSB-2	122 µM
Cc1ccc(NC(=O)NC(C)CCc2ccccc2)cc1Cl		MTT	CCL-81	>400 µg/mL
Oc1ccc2oc3ccccc3c2c1			HELA-H1	100 µM
COc1cc([C@H]2OC[C@H]3[C@@H]2CO[C@H]3c2cc(OC)c3c(c2)OCO3)cc2c1OCO2			HOG.R5	>20 µg/mL
CN(C)c1nc(N)c(C(=O)N=C(N)N)nc1Cl			MDM	>10 µM
C[CH2][Sn]([Cl])([Cl])[CH2]C.c1ccc(-c2nc3ccccc3[nH]2)nc1			HFF	19 µg/mL
Nc1ncnc2c1ncn2CCOCP(=O)(O)O			C3	>200 µM
CCc1c(Sc2ccccn2)n(COCc2ccccc2)c(=O)[nH]c1=O		XTT	T4	>0.98 µM
OC[C@H]1O[C@@H](n2cnc3c(NC4CC4)nc(Cl)nc32)[C@H](O)[C@@H]1O			MDBK	359 µM
C[CH2][Sn]([Br])([Br])[CH2]C.c1cnc2c(c1)ccc1cccnc12			HFF	17 µg/mL
Nc1cccc2c(-c3ccccc3)ccnc12		MTT	J-Lat 10.6	17.36 µM
Nc1ncnc2c1c(Br)cn2[C@@H]1O[C@H](CO)[C@@H](O)[C@H]1O			PRK/E6SM	0.4 µg/mL
CC1CCCC23CC4C(CC12C)C4(C)C3		ATP	RAJI	>26 µM
COC(=O)N[C@H](C(=O)N1CCC[C@H]1c1ncc(-c2ccc(-c3ccc(-c4cnc([C@@H]5CCCN5C(=O)[C@@H](NC(=O)OC)C(C)C)[nH]4)cc3)cc2)[nH]1)C(C)C		ATP	COLO-205	17 µM
Nc1nc(Cl)nc2c1ncn2[C@H]1C[C@H](O)[C@@H](CO)O1		MTT	Sheep chondrocytes G81092	<50 µM
CCCCCC(=O)O[C@H]1C[C@H](n2cc(/C=C/Br)c(=O)[nH]c2=O)O[C@@H]1COP1(=O)OCc2cccc(C)c2O1			HELF	>128 µg/mL
C/C(=N\OCc1ccc(F)cc1)c1c(C)cc(=O)n(O)c1O	7 d	MTS	HepG2-NTCO-12	>50 µM
CCCCCCCCCC(=O)O[C@H]1C[C@H](n2cc(/C=C/Br)c(=O)[nH]c2=O)O[C@@H]1COP1(=O)OCc2cccc(C)c2O1			HELF	71.2 µg/mL
CC/C=C\C[C@@H]1[C@@H](CC(=O)OC)CC[C@H]1O		ATP	BJ	>26 µM
NC(=O)c1ncn([C@@H]2O[C@H](CO)[C@@H](O)[C@H]2O)n1			PRK/E6SM	>400 µg/mL
O=c1[nH]c(=O)n([C@@H]2CO[C@H](CO)C2)cc1/C=C/Br			E6SM	>400 µg/mL
Nc1ncnc2c1ncn2[C@H]1CC[C@@H](CO)O1			Sheep chondrocytes G81092	>400 µM
CC/C=C\C[C@H]1C(=O)CC[C@@H]1CC(=O)O		ATP	BJ	>26 µM
CCCCCCC[CH2][Sn]([Cl])([Cl])[CH2]CCCCCCC			HFF	75 µg/mL
CC/C=C\C[C@H]1C(=O)CC[C@@H]1CC(=O)OC		ATP	RAJI	>26 µM
Nc1nccc2c1ncn2C[C@@H](CO)OCP(=O)(O)O			HSB-2	36 µM
COC(=O)N[C@H](C(=O)N1CCC[C@H]1c1nc2ccc(-c3csc4c(-c5ccc(-c6cnc([C@@H]7CCCN7C(=O)[C@H](NC(=O)OC)c7ccccc7)[nH]6)cc5)csc34)cc2[nH]1)C(C)C		ATP	CCRF-CEM	>50 µM
NC(=O)C(c1ccccc1)(c1ccccc1)[C@H]1CCCN(CCc2ccc3c(c2)CCO3)C1		XTT	PM1	60 µM
Cc1cccc2c1OP(=O)(OC[C@H]1O[C@@H](n3cc(/C=C/Br)c(=O)[nH]c3=O)C[C@@H]1OC(=O)C(C)(C)C)OC2			HELF	62.9 µg/mL
O=c1[nH]c(=O)n([C@H]2C[C@H](O)[C@@H](CO)O2)cc1C12B3B4B5B6B(B3B1B42)B1B5C61			LNCaP	~115 µM
CC[C@H](CC[C@@H](C)[C@H]1CCC2C3CC=C4C[C@@H](O)CC[C@]4(C)[C@@]3(C)CC[C@@]21C)C(C)C		ATP	BJ	>26 µM
c1ccc2c(c1)CCc1ccccc1C2			HELA-H1	150 µM
CCCOC(=O)C(CCSC[C@H]1O[C@@H](n2ccc3c(N)ncnc32)[C@H](O)[C@@H]1O)NC(=O)C(F)(F)F			PRK/E6SM	>40 µg/mL
Nc1ncnc2c1cnn2C[C@@H](CO)OCP(=O)(O)O			HSB-2	12 µM
Nc1nc(Cl)cc2c1ncn2[C@@H]1O[C@H](CO)C[C@H]1O		MTT	Sheep chondrocytes G81092	>400 µM
O=c1oc2c(O)c(O)cc3c(=O)oc4c(O)c(O)cc1c4c23		ATP	RAJI	>26 µM
C[C@@H]1CC[C@H]2[C@@H](C)C(=O)O[C@@H]3OC4(C)CC[C@@H]1[C@]32OO4			MDCK	>20 µM

Repeating the first 7 entries:

smiles	setting	read by	cells	value
NC(=O)c1ncn([C@@H]2O[C@H](CO)[C@@H](O)[C@H]2O)n1		neutral red	APC103	78 µM
O=c1[nH]c(=O)n([C@H]2C[C@H](O)[C@@H](COP3(=O)OCc4cc5ccccc5cc4O3)O2)cc1/C=C/Br			HELF	85 µg/mL
O=c1c2cccn2ccn1CCNC(=S)Nc1ccc(Br)cn1			NSO	420 µM
Nc1nc(N)c2ncn(CCOCP(=O)(O)O)c2n1			C3	>200 µM
OC[C@H]1O[C@@H](n2cnc3c(NC4CC4)ncnc32)C[C@@H]1O			Sheep chondrocytes G81092	312 µM
CCc1nc2ccccn2c1C(=O)c1ccco1			U1	>100 µM
CC(/C=C/C=C(\C)CC(=O)O)=C\C=C\C=C(C)\C=C\C(C)=C(/C)C(=O)O		ATP	RAJI	>26 µM